Laboratory results published in PubChem BioAssay AID652176 (Sanford-Burnham Center for Chemical Genomics, 2013).
The list shows a part of the results, in another mix than the full data. The source made the active and inactive calls.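 How the source made its calls: active means replicate-average signal at least 3 plate SD below neutral wells, shown as high inhibition, flagging enzyme-inhibiting false positives; inactive means the rest.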

Each molecule was assayed on Beta-galactosidase (Escherichia coli), counter-screen for EBI2 antagonists (assay: E. coli beta-galactosidase enzyme inhibition, confirmation, counter-screen for EBI2 antagonist project, biochemical, luminescence, single concentration (AID 652176;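 further: 0% = DMSO wells with enzyme and 100% = wells lacking enzyme; higher means stronger loss of beta-gal luminescence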)). Conditions: purified beta-galactosidase, luminescent Galacton Star, 15 min; at 5 µM; active compounds read high.

Structure (SMILES)	inhibition
CN(Cc1cccnc1)C(=O)COc1ccc(Cl)c(Cl)c1.O=[N+]([O-])c1cc([N+](=O)[O-])c(O)c([N+](=O)[O-])c1	inactive: -7.13%
